pEC50, pIC50: −log10 of the molar value. Like-named read-outs stand apart in the source and are kept apart here.
Experiments:
[1] = target: Cap-dependant Endonuclease (CEN) (RNP fraction, PB1-PB2-PA complex) (Influenza A virus (strain A/Wilson-Smith/1933 H1N1) (Influenza A virus (strain A/WS/1933 H1N1)), UniProt P15659); format: biochemical, influenza A/WSN/33 virus
influenza virus = assay: microbe, parasite or virus in culture; format: cell-based; conditions: MDBK or MDCK cells, 3 days, WST-8
[2] = parent compounds (Reference examples), room temperature, 60 minutes
[3] = read-out: CPE EC50, parent compounds (Reference examples)

Row | SMILES | pIC50 [1, 2] | pIC50 [1] | also measured
1 | O=C1c2c(O)c(=O)ccn2N(C2c3ccccc3CCc3ccccc32)CN1Cc1ncns1 [Reference example 271] | 7.14 |  | 
2 | C[C@@H](N1CN([C@@H]2c3ccccc3CSc3ccccc32)n2ccc(=O)c(O)c2C1=O)C(F)(F)F [Reference example 414] |  | 5.72 | 
3 | O=C1c2c(O)c(=O)ccn2N([C@H]2c3ccccc3CSc3c(F)cccc32)CN1[C@H](CO)C(F)(F)F [Reference example 611] |  | 7.26 | 
4 | Cc1cccc2c1CSc1c(Cl)cccc1[C@H]2N1CN([C@H](C)C(F)(F)F)C(=O)c2c(O)c(=O)ccn21 [Reference example 612] | 7.26 |  | 
5 | C[C@@H](N1CN([C@H]2c3ccccc3CSc3c(C#N)cccc32)n2ccc(=O)c(O)c2C1=O)C(F)(F)F [Reference example 618] | 7.54 |  | 
6 | C[C@@H](N1CN([C@H]2c3ccccc3CCc3c(Cl)cccc32)n2ccc(=O)c(O)c2C1=O)C(F)(F)F [Reference example 639] | 7.26 |  | 
7 | C[C@@H](N1CN([C@H]2c3cccc(C(F)(F)F)c3CSc3c(F)cccc32)n2ccc(=O)c(O)c2C1=O)C(F)(F)F [Reference example 660] | 7.44 |  | 
8 | Cc1cccc2c1SCc1cccc(C)c1[C@@H]2N1CN([C@H](C)C(F)(F)F)C(=O)c2c(O)c(=O)ccn21 [compound 720] | 7.72 |  | pEC50 (influenza virus; unidentified influenza virus, 72 h, read-out: CPE EC50, parent compounds (Reference examples)): 8.20
9 | Cc1cccc2c1SCc1cccc(C)c1[C@@H]2N1CN([C@H](C)C(F)(F)F)C(=O)c2c(O)c(=O)ccn21 [compound 721] |  | 8.16 | pEC50 (influenza virus; [3]): 8.40
10 | Cc1cccc2c1SCc1cccc(C)c1[C@@H]2N1CN([C@H](C)C(F)(F)F)C(=O)c2c(O)c(=O)ccn21 [compound 722] | 7.72 |  | pEC50 (influenza virus; [3]): 8.42

— patent publication US10202379B2, “Substituted polycyclic carbamoyl pyridone derivative prodrug” (priority 2010, dated 2019)
